In PubChem BioAssay AID720542 (National Center for Advancing Translational Sciences (NCATS), 2013):
This is a selection; strong and weak results do not stand in their true shares. The source made the active and inactive calls. Calls come from the whole dose curve; as a rule, active = well fitted inhibition curve with a large enough effect; inconclusive = small, poorly fitted or top-dose-only effect; inactive = no such curve, though single readings can be large or run the other way.

System: Plasmodium falciparum AMA1 (3D7) - RON2 peptide interaction
Experiment: qHTS for Inhibitors of AMA1-RON; Towards Development of Antimalarial Drug Lead: Primary Screen;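 note: 0% = vehicle wells and -100% = peptide control; nearly all actives have a fitted effect of over 45% in size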
Conditions: AlphaScreen AMA1-biotinylated RON2 peptide binding; at 58.2 µM (top of the series) unless noted

| Compound | activity change, negative = inhibition |
| --- | --- |
| CP(=S)(Nn1cnnc1)Oc1ccccc1 (configuration not stated) | inactive: 27.2% |
| COc1ccccc1OP(C)(=O)Nc1ccccc1 (configuration not stated) | inactive: 11.4% |
| CP(=O)(Nc1ccccc1Br)Oc1ccccc1 (configuration not stated) | inactive: 4.9% |
| CP(=O)(Oc1ccccc1)OC(c1ccccc1)C(F)(F)F (configuration not stated) | inactive: -2.25% |
| CP(=O)(Nc1ccc(SC(F)(F)F)cc1)Oc1ccc(Cl)cc1 (configuration not stated) | inactive: 1.19% |
| Cc1cccc(C)c1OP(C)(=O)Nc1ccc(SC(F)(F)F)cc1 (configuration not stated) | inactive: -11.8% [at 2.32 µM] |
| Cc1cc(C)cc(OP(C)(=O)Nc2ccc(SC(F)(F)F)cc2)c1 (configuration not stated) | inactive: 0% |
| CP(=O)(NC(=O)Nc1ccccc1)Oc1ccccc1 (configuration not stated) | inactive: 33.7% |
| CCOP(C)(=S)SCC(=O)NC(C)C(=O)O (configuration not stated) | inactive: 4.01% |
| O=[N+]([O-])c1cc([N+](=O)[O-])c(O)c([N+](=O)[O-])c1.c1ccc(Oc2ccncc2)cc1 | inactive: 3.96% |
| CCOC(=O)c1ccc(NP(C)(=O)Oc2ccc(OC)cc2)cc1 (configuration not stated) | inactive: 10.9% |
| CP(=O)(Nc1ccccn1)Oc1ccc(Cl)cc1 (configuration not stated) | inactive: -2.88% |
| CCN(CC)CCCOC(=O)C(O)(c1ccccc1)c1ccccc1 | inactive: 0.0737% |
| COc1ccccc1-c1ccccn1.O=[N+]([O-])c1cc([N+](=O)[O-])c(O)c([N+](=O)[O-])c1 | inactive: -5.49% |
| O=[N+]([O-])c1cc([N+](=O)[O-])c(Nc2cccnc2)c([N+](=O)[O-])c1 | inactive: -7.43% |
| Cc1cccc(C)c1OP(C)(N)=O (configuration not stated) | inactive: 0.758% |
| CC(C)(C)c1ccc(OP(C)(=O)Nc2ccc(SC(F)(F)F)cc2)cc1 (configuration not stated) | inactive: -29.1% |
| O=[N+]([O-])c1ccc2c(c1)C=Nc1ccccc1O2 | inactive: -21% |
| CCOC(=O)c1ccc(NP(C)(=O)Oc2ccccc2)cc1 (configuration not stated) | inactive: 20.5% |
| Cc1ccc(NP(C)(=O)Oc2ccccc2)c(C)c1 (configuration not stated) | inactive: 0.926% |
| COc1ccccc1OP(C)(=O)Nc1ccc(C)cc1 (configuration not stated) | inactive: -1.69% |
| COc1ccc(OP(C)(=O)Nc2cccc(F)c2)cc1 (configuration not stated) | inactive: -0.685% |

| Compound | activity change, negative = inhibition |
| --- | --- |
| COc1ccccc1OP(C)(=O)Nc1cc(Cl)ccc1C (configuration not stated) | inactive: -7.15% |
| Cc1cc(C)cc(OP(C)(N)=O)c1 (configuration not stated) | inactive: -18.8% |
| CC1=NCCc2c1[nH]c1ccccc21.O=[N+]([O-])c1cc([N+](=O)[O-])c(O)c([N+](=O)[O-])c1 | inactive: -19.1% |
| COc1ccccc1OP(C)(=O)Nc1cccc(Br)c1 (configuration not stated) | inactive: 8.33% |
| Cc1cc(C)cc(OP(C)(=O)Nc2ccc(C)cc2C)c1 (configuration not stated) | inactive: -1.96% |
| CCOC(=O)c1ccc(NP(C)(=O)Oc2cc(C)cc(C)c2)cc1 (configuration not stated) | inactive: -0.656% |
| CP(=O)(Nc1cccc(Br)c1)Oc1ccccc1 (configuration not stated) | inactive: 0.0297% |
| Cc1cc(C)cc(OP(C)(=O)Nc2ccccn2)c1 (configuration not stated) | inactive: 6.55% |
| Cc1ccc(C)c(NP(C)(=O)Oc2ccccc2)c1 (configuration not stated) | inactive: -14.4% |
| O=[N+]([O-])c1cc([N+](=O)[O-])c(-n2nnc3ccccc32)c([N+](=O)[O-])c1 | inactive: 0% |
| CN(Cc1cccnc1)C(=O)COc1ccc(Cl)c(Cl)c1.O=[N+]([O-])c1cc([N+](=O)[O-])c(O)c([N+](=O)[O-])c1 | inactive: -11.6% |
| Cc1nc2ccc3ccccc3c2s1.O=[N+]([O-])c1cc([N+](=O)[O-])c(O)c([N+](=O)[O-])c1 | inactive: 12.3% |
| O=[N+]([O-])c1cc([N+](=O)[O-])c(Nc2nnnn2CCO)c([N+](=O)[O-])c1 | inactive: -4.55% |
| CC1=C2N=C(C=C3N=C(C(C)=C4[N-][C@@](C)([C@@H]5N=C1[C@](C)(CCC(=O)NC[C@@H](C)OP(=O)([O-])O[C@H]1[C@@H](O)[C@@H](n6cnc7cc(C)c(C)cc76)O[C@@H]1CO)[C@H]5CC(N)=O)[C@@](C)(CC(N)=O)[C@@H]4CCC(N)=O)[C@@](C)(CC(N)=O)[C@@H]3CCC(N)=O)C(C)(C)[C@@H]2CCC(N)=O.[C-]#N.[Co+3] | inactive: -12% |
| CN1CCCCC1COC(=O)C1(O)c2ccccc2CCc2ccccc21 (configuration not stated) | inactive: 9.17% [at 11.6 µM] |
| COc1ccccc1OP(C)(=O)Nc1c(C)cccc1C (configuration not stated) | inactive: 5.45% |
| CP(=O)(Nc1ccc(SC(F)(F)F)cc1)Oc1ccccc1 (configuration not stated) | inactive: 20.7% |
| CCCOc1ccc(NP(C)(=O)Oc2ccc(Cl)cc2)cc1 (configuration not stated) | inactive: 6.63% |
| COc1ccc(-c2ccccn2)cc1.O=[N+]([O-])c1cc([N+](=O)[O-])c(O)c([N+](=O)[O-])c1 | inactive: 1.71% |
| COc1ccc(OP(C)(=O)Nc2cccc(Br)c2)cc1 (configuration not stated) | inactive: -1.66% |
| COc1ccc(NP(C)(=O)Oc2ccccc2OC)cc1 (configuration not stated) | inactive: 6.21% |
| CN(C)CCOC(=O)C(O)(c1ccccc1)C1CCCCC1 (configuration not stated) | inactive: -3.73% |

| Compound | activity change, negative = inhibition |
| --- | --- |
| Cc1cc(-c2cccc3ccccc23)c(C)cn1.O=[N+]([O-])c1cc([N+](=O)[O-])c(O)c([N+](=O)[O-])c1 | inactive: -3.99% |
| O=[N+]([O-])c1ccc(OP2(=O)COCCO2)cc1 (configuration not stated) | inactive: 8.41% |
| Cc1c(C(c2ccc3c(c2)OCO3)c2c(C)n(C)n(-c3ccccc3)c2=O)c(=O)n(-c2ccccc2)n1C.O=[N+]([O-])c1cc([N+](=O)[O-])c(O)c([N+](=O)[O-])c1 | inactive: 11.7% |
| CP(=O)(Nc1ccc(SC(F)(F)F)cc1)Oc1ccc(F)cc1 (configuration not stated) | inactive: 0% |
| CCOP(C)(=S)SCC(=O)NC(C)(CC)C(=O)O (configuration not stated) | inactive: 21.9% |
| CP(=O)(Nc1ccc2c(c1)OCCO2)Oc1ccccc1 (configuration not stated) | inactive: -10.3% |
| O=[N+]([O-])c1cc([N+](=O)[O-])c(C(F)(F)F)c([N+](=O)[O-])c1O | inactive: -2.56% |
| Cc1ccccc1NP(C)(=O)Nc1ccccc1C | inactive: 11.2% |
| CC(C)c1ccc(OP(C)(=O)Nc2ccc(SC(F)(F)F)cc2)cc1 (configuration not stated) | inactive: 16.3% |
| CP(=O)(Nc1ccccc1F)Oc1ccccc1 (configuration not stated) | inactive: 4.85% |
| O=C(OCCN1CCN(CCOCc2ccccc2)CC1)C(O)(c1ccccc1)c1ccccc1 | inactive: -15.8% |
| COc1ccc(OP(C)(=O)Nc2ccc(SC(F)(F)F)cc2)cc1 (configuration not stated) | inactive: 3.58% |
| CCOC(=O)c1ccc(NP(C)(=O)Oc2ccc(F)cc2)cc1 (configuration not stated) | inactive: -4.68% |
| CCN(CC)CCCOC(=O)C(O)(c1ccccc1)C1CCCCC1 (configuration not stated) | inactive: -1.7% |
| Cc1c([N+](=O)[O-])cc([N+](=O)[O-])c(Br)c1[N+](=O)[O-] | inactive: -21.7% |
| CCCCCOc1ccc(NP(C)(=O)Oc2ccc(Cl)cc2Cl)cc1 (configuration not stated) | inactive: 0% |
| CP(=O)(Nc1ccccc1)Oc1ccc(F)cc1 (configuration not stated) | inactive: 11.8% |
| Cc1cc(C)cc(OP(C)(=O)Nc2cccc(C(F)(F)F)c2)c1 (configuration not stated) | inactive: 7.03% |
| COc1ccc(OP(C)(=O)Nc2ccccc2Br)cc1 (configuration not stated) | inactive: 4.68% |
| COc1ccccc1OP(C)(=O)Nc1ccc(C)c(C)c1 (configuration not stated) | inactive: -2.25% |
| CP(=O)(OCCOc1ccccc1)OCCOc1ccccc1 | inactive: -1.4% |
| CP(=O)(Nc1ccc(Cl)cc1Cl)Oc1ccccc1 (configuration not stated) | inactive: 0% |

| Compound | activity change, negative = inhibition |
| --- | --- |
| CCCCCCCCCCCCCCCC1C[N+](C)(C)CCOP(C)(=O)O1 (configuration not stated) | inactive: -5.06% |
| COc1ccccc1OP(C)(=O)Nc1ccc(Br)cc1 (configuration not stated) | inactive: -0.872% |
| COc1ccc(OP(C)(=O)Nc2ccccn2)cc1 (configuration not stated) | inactive: -4.03% |
| O=[N+]([O-])c1cc([N+](=O)[O-])c(Nc2ccccn2)c([N+](=O)[O-])c1 | inactive: -24.1% |
| Cc1c(NP(C)(=O)Oc2ccc(C(C)C)cc2)c(=O)n(-c2ccccc2)n1C (configuration not stated) | inactive: -0.0937% |
| CCc1ccc(OP(C)(=O)O)cc1 | inactive: -3.42% |
| COc1ccccc1OP(C)(=O)Nc1ccc(C)cc1C (configuration not stated) | inactive: -4.61% |
| CP(=O)(Nc1ccccn1)Oc1ccccc1 (configuration not stated) | inactive: -12.9% |
| COc1ccc(OP(C)(=O)Nc2ccc(Br)cc2)cc1 (configuration not stated) | inactive: -16.6% |
| CCN(CC)CC(O)COC(=O)C(O)(c1ccccc1)C1CCCCC1 (configuration not stated) | inactive: -8.75% |
| CCc1ccc(OP(C)(=O)Nc2cccnc2)cc1 (configuration not stated) | inactive: -10.1% |
| CP(=O)(Oc1ccccc1)N1CCOC1=O (configuration not stated) | inactive: -1.98% |
| O=C(OCCCN1CCCC1)C(O)(c1ccccc1)C1CCCCC1 (configuration not stated) | inactive: 2.51% |
| COc1ccccc1OP(C)(=O)Nc1c(C)n(C)n(-c2ccccc2)c1=O (configuration not stated) | inactive: -8.1% |
| CP(=O)(Nc1ccc(Cl)cc1)Oc1ccc(F)cc1 (configuration not stated) | inactive: 0% |
| CC(C)(C)c1ccc(OP(C)(=O)O)cc1 | inactive: -17.9% |
| COc1ccccc1OP(C)(=O)Nc1ccccc1Br (configuration not stated) | inactive: 7.54% |
| CN(C)C(=O)c1c([N+](=O)[O-])cc([N+](=O)[O-])cc1[N+](=O)[O-] | inactive: 10% |
| Nc1ccc2c(ccc3cccnc32)n1.O=[N+]([O-])c1cc([N+](=O)[O-])c(O)c([N+](=O)[O-])c1 | inactive: -9.61% |
| CP(=O)(OC12CC3CC(CC(C3)C1)C2)OC12CC3CC(CC(C3)C1)C2 | inactive: -12.2% |
| CCOC(=O)c1ccc(NP(C)(=O)Oc2ccc(Cl)cc2)cc1 (configuration not stated) | inactive: -0.696% |
